The values that follow come from patent US20250066290A1, “DHODH INHIBITORS CONTAINING A CARBOXYLIC ACID BIOISOSTERE” (IMMUNIC AG, priority 2021, published 2025).

The test system of this assay is SARS-CoV-2. Kind of assay: SARS-CoV-2 viral replication (YFP) assay. It is filed as cell-based. The conditions noted are these: Severe acute respiratory syndrome coronavirus 2, read-out: EC50 range.

For orientation: EC50 means the concentration giving half of the maximal effect. As for `[2H]C([2H])([2H])Oc1cccc(-c2cc(F)c(NC(=O)C3=C(C(=O)NOC)CSC3)c(F)c2)c1` [Example 6, N^3-(3,5-Difluoro-3′-(methoxy-d3)-[1,1′-biphenyl]-4-yl)-N^4-methoxy-2,5-dihydrothiophene-3,4-dicarboxamide], the EC50 is less than 1000 nM.
